{"source": "PubChem BioAssay AID1259414 (Drosophila RNAi Screening Center, 2018)", "assay": "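Fly genes that alter Wolbachia amount inside host cells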 (primary screen)", "cell system": "Drosophila JW18 cells infected with Wolbachia", "reagents": "long dsRNA against Drosophila genes, 0.25 µg dsRNA per well of a 384-well plate", "timing": "5 days", "conditions": "cells persistently infected with Wolbachia before knock-down; no added drug", "read-out": "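Imaged fluorescence in situ signal for Wolbachia 23S rRNA per DAPI-counted host cell, given as a robust z-score within each plate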", "reading the numbers": "Wolbachia per cell robust z: higher = more Wolbachia per host cell than the plate typical", "hit rule": "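Hit when robust z is 1.5 or more, or -1.5 or less, in at least two of three replicates; excludes dsRNAs with several or no targets, genes not expressed in JW18 and well A1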", "note": "The deposit covers about 24,000 reagents; shown is an unselected part of those with a known target gene and a result. Of all reagents, about 1,210 (5%) are marked active. 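Inactive calls also include excluded dsRNAs with several or no targets, genes unexpressed in JW18, and well A1, regardless of score.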 Entries without a mark were called inactive."}
{"predicted target": "mip120", "amplicon": "DRSC06960", "Wolbachia per cell robust z, rep 1": -3.38, "Wolbachia per cell robust z, rep 2": -0.338, "Wolbachia per cell robust z, rep 3": 0.595}
{"predicted target": "mip120", "amplicon": "DRSC29182", "Wolbachia per cell robust z, rep 1": -7.38, "Wolbachia per cell robust z, rep 2": 1.28, "Wolbachia per cell robust z, rep 3": 0.833}
{"predicted target": "Ifrd1", "amplicon": "DRSC00415", "Wolbachia per cell robust z, rep 1": "-7.12 (active)", "Wolbachia per cell robust z, rep 2": -2.62, "Wolbachia per cell robust z, rep 3": 0.325}
{"predicted target": "Ifrd1", "amplicon": "DRSC00566", "Wolbachia per cell robust z, rep 1": -3.64, "Wolbachia per cell robust z, rep 2": -0.808, "Wolbachia per cell robust z, rep 3": 0.292}
{"predicted target": "CG6431", "amplicon": "DRSC02956", "Wolbachia per cell robust z, rep 1": 1.53, "Wolbachia per cell robust z, rep 2": -0.73, "Wolbachia per cell robust z, rep 3": -0.738}
{"predicted target": "Ptr", "amplicon": "DRSC04852", "Wolbachia per cell robust z, rep 1": -1.65, "Wolbachia per cell robust z, rep 2": 0.00987, "Wolbachia per cell robust z, rep 3": 0.877}
{"predicted target": "Ptr", "amplicon": "DRSC21517", "Wolbachia per cell robust z, rep 1": -1.34, "Wolbachia per cell robust z, rep 2": 0.651, "Wolbachia per cell robust z, rep 3": -0.105}
{"predicted target": "CG7213", "amplicon": "DRSC10787", "Wolbachia per cell robust z, rep 1": 0.0841, "Wolbachia per cell robust z, rep 2": -0.49, "Wolbachia per cell robust z, rep 3": -0.568}
{"predicted target": "CG7326", "amplicon": "DRSC20037", "Wolbachia per cell robust z, rep 1": 0.485, "Wolbachia per cell robust z, rep 2": -0.375, "Wolbachia per cell robust z, rep 3": 0.564}

4 of these entries, reformatted:
Ptr [DRSC04852]: Wolbachia per cell robust z, rep 1 = -1.65; Wolbachia per cell robust z, rep 2 = 0.00987; Wolbachia per cell robust z, rep 3 = 0.877
Ptr [DRSC21517]: Wolbachia per cell robust z, rep 1 = -1.34; Wolbachia per cell robust z, rep 2 = 0.651; Wolbachia per cell robust z, rep 3 = -0.105
CG7213 [DRSC10787]: Wolbachia per cell robust z, rep 1 = 0.0841; Wolbachia per cell robust z, rep 2 = -0.49; Wolbachia per cell robust z, rep 3 = -0.568
CG7326 [DRSC20037]: Wolbachia per cell robust z, rep 1 = 0.485; Wolbachia per cell robust z, rep 2 = -0.375; Wolbachia per cell robust z, rep 3 = 0.564

Additional records:
{"predicted target": "Mipp2", "amplicon": "DRSC18682", "Wolbachia per cell robust z, rep 1": 0.499, "Wolbachia per cell robust z, rep 2": -7.1, "Wolbachia per cell robust z, rep 3": 0.657}
{"predicted target": "CG13325", "amplicon": "DRSC06362", "Wolbachia per cell robust z, rep 1": -0.801, "Wolbachia per cell robust z, rep 2": -0.859, "Wolbachia per cell robust z, rep 3": 0.836}
{"predicted target": "CG13325", "amplicon": "DRSC24773", "Wolbachia per cell robust z, rep 1": 0.0677, "Wolbachia per cell robust z, rep 2": -0.00889, "Wolbachia per cell robust z, rep 3": -1.01}
{"predicted target": "CG34247", "amplicon": "DRSC09933", "Wolbachia per cell robust z, rep 1": -0.992, "Wolbachia per cell robust z, rep 2": -7.81, "Wolbachia per cell robust z, rep 3": 0.939}
{"predicted target": "tous", "amplicon": "DRSC04464", "Wolbachia per cell robust z, rep 1": 1.72, "Wolbachia per cell robust z, rep 2": -2.5, "Wolbachia per cell robust z, rep 3": 0.758}
{"predicted target": "MBD-like", "amplicon": "DRSC16996", "Wolbachia per cell robust z, rep 1": "0.693 (active)", "Wolbachia per cell robust z, rep 2": -6.47, "Wolbachia per cell robust z, rep 3": -2.69}
{"predicted target": "Mip", "amplicon": "DRSC23429", "Wolbachia per cell robust z, rep 1": 0.637, "Wolbachia per cell robust z, rep 2": -0.138, "Wolbachia per cell robust z, rep 3": 0.0326}
{"predicted target": "CG7126", "amplicon": "DRSC16201", "Wolbachia per cell robust z, rep 1": 0.158, "Wolbachia per cell robust z, rep 2": 0.0709, "Wolbachia per cell robust z, rep 3": 0.867}
{"predicted target": "CG7126", "amplicon": "DRSC25839", "Wolbachia per cell robust z, rep 1": -1.73, "Wolbachia per cell robust z, rep 2": -0.321, "Wolbachia per cell robust z, rep 3": -0.458}
{"predicted target": "CG7126", "amplicon": "DRSC39071", "Wolbachia per cell robust z, rep 1": -1.39, "Wolbachia per cell robust z, rep 2": 0.366, "Wolbachia per cell robust z, rep 3": 0.232}
{"predicted target": "CG10631", "amplicon": "DRSC02081", "Wolbachia per cell robust z, rep 1": -6.14, "Wolbachia per cell robust z, rep 2": 0.207, "Wolbachia per cell robust z, rep 3": -0.594}
{"predicted target": "CG17191", "amplicon": "DRSC15185", "Wolbachia per cell robust z, rep 1": -4.67, "Wolbachia per cell robust z, rep 2": 0.43, "Wolbachia per cell robust z, rep 3": 1.1}
{"predicted target": "CG17191", "amplicon": "DRSC24134", "Wolbachia per cell robust z, rep 1": -0.975, "Wolbachia per cell robust z, rep 2": -1.37, "Wolbachia per cell robust z, rep 3": -0.367}
{"predicted target": "serp", "amplicon": "DRSC11035", "Wolbachia per cell robust z, rep 1": -0.873, "Wolbachia per cell robust z, rep 2": -0.818, "Wolbachia per cell robust z, rep 3": -0.508}
{"predicted target": "serp", "amplicon": "DRSC11036", "Wolbachia per cell robust z, rep 1": 1.03, "Wolbachia per cell robust z, rep 2": 1.59, "Wolbachia per cell robust z, rep 3": 0.364}
